Measured values from several laboratories, pooled; numbers as filed in NIAID ChemDB.

Shared fields: growth or infection tests; species: HIV-1; cell line: CEM; endpoint: EC50

ECn: concentration that inhibits the pathogen or its effect by n%. Blank or dashed fields: not listed here. Conditions beyond the fields shown may differ between rows.

smiles	strain or isolate	changes	method	result
Cc1ccnc2c1NC(=O)c1cccnc1N2C1CC1	J-2 (RT-Y181C)	RT-Y181C	cytopathic effect	0.65 µg/mL
Cc1ccnc2c1NC(=O)c1cccnc1N2C1CC1		RT-L100I	syncytia	0.3 µM
CC(C)=CCN1Cc2cc(Cl)cc3[nH]c(=S)n(c23)C[C@@H]1C	IIIB	RT-L100I	cytopathic effect	1.75 µg/mL
Cc1c(Sc2ccccc2)n(COCCO)c(=O)[nH]c1=O	IIIB NEV(RT-V106A)	RT-V106A	syncytia	90 µg/mL
Cc1occc1C(=S)Nc1ccc(Cl)c(/C=N/OC(C)(C)C)c1	IIIB		p24	0.05 µg/mL
CC(C)=CCOc1cc(NC(=S)c2ccoc2C)ccc1Cl	IIIB	RT-Y181C	cytopathic effect	0.015 µg/mL
Cc1cn([C@H]2C[C@H](N=[N+]=[N-])[C@@H](CO)O2)c(=O)[nH]c1=O	IIIB-BHAP)(0.1)(RT-L100I	RT-L100I	syncytia	0.002 µM
CCOCn1c(Cc2ccccc2)c(C(C)C)c(=O)[nH]c1=O	IIIB		cytopathic effect	0.003 µg/mL
CC(C)=CCOc1cc(NC(=S)c2ccsc2C)ccc1Cl	IIIB	RT-L100I	syncytia	0.5 ± 0.14 µM
CC(C)=CCN1Cc2cc(Cl)cc3[nH]c(=S)n(c23)C[C@@H]1C	IIIB TIBO R82913 STR-B02 (RT L100I E138K)	RT-L100I E138K	syncytia	5 µM
Cc1cn([C@@H]2O[C@H](CO[Si](C)(C)C(C)(C)C)C3(OS(=O)(=O)C=C3N)[C@H]2O[Si](C)(C)C(C)(C)C)c(=O)n(C)c1=O	IIIB	RT-G190E	p24	>50 µg/mL
N#CCN1C(=O)N(Cc2ccccc2)S(=O)(=O)c2cscc21		RT-E138K	syncytia	7.2 µM
Cc1ccnc2c1NC(=O)c1cccnc1N2C1CC1	IIIB BHAP(RT-L100I)	RT-L100I	syncytia	0.04 µg/mL
Cc1occc1C(=S)Nc1ccc(Cl)c(/C=N/OC(C)(C)C)c1	IIIB	RT-V179D	cytopathic effect	0.17 µg/mL
O=c1[nH]cnc2c1ncn2[C@H]1CC[C@@H](CO)O1	IIIB TIBO R82913 STR-1 (RT L100I Y181C)	RT-L100I Y181C	syncytia	15 µM
CC(C)Nc1cccnc1N1CCN(C(=O)c2cc3ccccc3[nH]2)CC1	MN-QUIN(RT-G190E)	RT-G190E	syncytia	4.4 µM
CN1C(=O)N(Cc2ccccc2)S(=O)(=O)c2cscc21		RT-Y188H	syncytia	>324 µM
Fc1cccc(F)c1[C@@H]1SCc2nc3ccccc3n21	IIIB	RT-V106N	cytopathic effect / XTT	≥34.7 µM
CCOCn1c(Sc2ccccc2)c(CC)c(=O)[nH]c1=S	IIIB NEV(RT-V106A)	RT-V106A	syncytia	0.09 µg/mL
Cc1cn([C@@H]2O[C@H](CO[Si](C)(C)C(C)(C)C)C3(OS(=O)(=O)C=C3N)[C@H]2O[Si](C)(C)C(C)(C)C)c(=O)n(C)c1=O	MN-QUIN(RT-G190E)	RT-G190E	syncytia	7.5 µM
CCOCn1c(Cc2cc(C)cc(C)c2)c(CC)c(=O)[nH]c1=O	IIIB	RT-Y181C	syncytia	1.2 µM
CC(C)=CCOc1cc(NC(=S)c2ccoc2C)ccc1Cl	J-2 (RT-Y181C)	RT-Y181C	cytopathic effect	0.0014 µg/mL
CC(C)=CCN1Cc2cc(Cl)cc3[nH]c(=S)n(c23)C[C@@H]1C	IIIB HEPT-resistant (RT Y188H)	RT-Y188H	syncytia	≥5 µg/mL
CCc1c(Sc2ccccc2)n(COCc2ccccc2)c(=O)[nH]c1=O	IIIB		syncytia	0.011 µM
CC(C)=CCN1Cc2cc(Cl)cc3[nH]c(=S)n(c23)C[C@@H]1C	IIIB	RT-G190E	p24	≥5 µg/mL
Cc1cn([C@@H]2O[C@H](CO[Si](C)(C)C(C)(C)C)C3(OS(=O)(=O)C=C3N)[C@H]2O[Si](C)(C)C(C)(C)C)c(=O)n(C)c1=O	IIIB-BHAP)(0.1)(RT-L100I	RT-L100I	syncytia	0.05 µg/mL
COc1ccc2c(c1)N(C(=O)OC(C)C)[C@@H](CSC)C(=S)N2	IIIB	RT-M184I	p24	0.001 µg/mL
Nc1ncnc2c1ncn2CC(CF)OCP(=O)(O)O	IIIB TIBO R82913 STR-1 (RT L100I Y181C)	RT-L100I Y181C	syncytia	3 µM
CCc1cc(NCc2nc3c(Cl)ccc(Cl)c3o2)c(=O)[nH]c1C	TIBO-2(RT-K103N)	RT-K103N	syncytia	1.4 µM
O=C1N(Cc2ccccc2)c2cscc2S(=O)(=O)N1Cc1ccccc1		RT-L100I	syncytia	≥10.4 µM
CC(C)=CCN1Cc2cc(Cl)cc3[nH]c(=S)n(c23)C[C@@H]1C	IIIB-Pyridinone(0.1)(RT-V179N	RT-V179N	syncytia	1.1 µg/mL
Fc1cccc(F)c1[C@H]1SCc2nc3ccccc3n21	IIIB	RT-K103N	cytopathic effect / XTT	≥6.9 µM
C=C(C)OC(=O)N1c2cc(Cl)ccc2NC(=S)C1(C)C	TIBO-2(RT-K103N)	RT-K103N	syncytia	0.18 µM
CCn1c(=O)c(C)cn([C@@H]2O[C@H](CO[Si](C)(C)C(C)(C)C)C3(OS(=O)(=O)C=C3N)[C@H]2O[Si](C)(C)C(C)(C)C)c1=O	IIIB TIBO R82913 STR-B02 (RT L100I E138K)	RT-L100I E138K	syncytia	>50 µM
CCOCn1c(Sc2ccccc2)c(CC)c(=O)[nH]c1=O	IIIB TIBO R82913-resistant (RT K103N)	RT-K103N	syncytia	0.63 µg/mL
CCOCn1c(Sc2ccccc2)c(CC)c(=O)[nH]c1=S	IIIB		syncytia	0.012 µM
CCOCn1c(Cc2cc(C)cc(C)c2)c(CC)c(=O)[nH]c1=O	IIIB		syncytia	0.001 µM
CCn1c(=O)c(C)cn([C@@H]2O[C@H](CO[Si](C)(C)C(C)(C)C)C3(OS(=O)(=O)C=C3N)[C@H]2O[Si](C)(C)C(C)(C)C)c1=O	IIIB	RT-E138K	syncytia	>75 µM
CC(C)=CCN1Cc2cc(Cl)cc3[nH]c(=S)n(c23)C[C@@H]1C	IIIB	RT-L100I	cytopathic effect / XTT	5.6 µM
Nc1nc2c(ncn2[C@H]2CC[C@@H](CO)O2)c(=O)[nH]1	IIIB		syncytia	1 µM
CCNc1cccnc1N1CCN(C(=O)c2cc3cc(OC)ccc3[nH]2)CC1	IIIB-Pyridinone(0.1)(RT-V179N	RT-V179N	syncytia	0.53 µg/mL

A second listing of 6 rows from above:

smiles	strain or isolate	changes	method	result
Cc1cn([C@@H]2O[C@H](CO[Si](C)(C)C(C)(C)C)C3(OS(=O)(=O)C=C3N)[C@H]2O[Si](C)(C)C(C)(C)C)c(=O)n(C)c1=O	MN-QUIN(RT-G190E)	RT-G190E	syncytia	7.5 µM
Cc1cn([C@@H]2O[C@H](CO[Si](C)(C)C(C)(C)C)C3(OS(=O)(=O)C=C3N)[C@H]2O[Si](C)(C)C(C)(C)C)c(=O)n(C)c1=O	IIIB-BHAP)(0.1)(RT-L100I	RT-L100I	syncytia	0.05 µg/mL
CC(C)=CCN1Cc2cc(Cl)cc3[nH]c(=S)n(c23)C[C@@H]1C	IIIB	RT-G190E	p24	≥5 µg/mL
CC(C)=CCN1Cc2cc(Cl)cc3[nH]c(=S)n(c23)C[C@@H]1C	IIIB HEPT-resistant (RT Y188H)	RT-Y188H	syncytia	≥5 µg/mL
Nc1ncnc2c1ncn2CC(CF)OCP(=O)(O)O	IIIB TIBO R82913 STR-1 (RT L100I Y181C)	RT-L100I Y181C	syncytia	3 µM
Cc1occc1C(=S)Nc1ccc(Cl)c(/C=N/OC(C)(C)C)c1	IIIB	RT-V179D	cytopathic effect	0.17 µg/mL